Pooled drug test results. Numbers come from NIAID ChemDB, via PubChem.

All rows: target-level tests; species: HIV-1; protein: Integrase; endpoint: IC50

ICn: concentration for n% inhibition. An empty or dashed field is not shown. Lines come from different laboratories, so protocols vary. Two numbers with a dash give a range or band.

compound	strain or isolate	method	value
O=C1OC[C@H]2[C@H](c3ccc(O)c(O)c3)c3cc(O)c(O)cc3C[C@H]12	HXB2	strand transfer / radiometric	0.5 µM
NCCCCNCCCN		3′ processing / substrate cleavage	>100 µM
C/C=C/[C@@H]1C=C[C@@H]2C[C@H](C)CC[C@H]2[C@]1(C)/C(O)=C1/C(=O)[C@H](CO)N(C)C1=O		strand transfer	7–15 µM
O=C(O)/C=C/c1cc(C(=O)O)c(O)c2nc(/C=C/c3ccc(O)c(O)c3)ccc12		3′ processing	0.3 µM
CCCCC[C@H]1C(C)=C[C@H]2C[C@@H](C)CC[C@@H]2[C@@]1(C)/C(O)=C1/C(=O)[C@@H](CO)N(C)C1=O		strand transfer	7–15 µM
CC1=C(CC(=O)O)c2cc(F)ccc2/C1=C\c1ccc(S(C)=O)cc1		AlphaScreen	13.85 µM
O=C(Nc1ccc([N+](=O)[O-])cc1)C(=S)NN1C(=O)/C(=C\c2ccc(Cl)cc2)SC1=S		strand transfer	>100 µM
O=c1c(O)c(-c2ccc(Cl)c(Cl)c2)oc2ccccc12		3′ processing	>100 µM
O=C1O/C(=C(/C(=O)O)c2ccc(O)cc2)C(O)=C1c1ccc(O)c(O)c1		absorbance	1.1 µM
O=C1C=CC(=O)c2ccccc21		3′ processing / substrate cleavage	>100 µM
CN1CCc2cc(O)c(O)cc2C(c2ccc(O)c(O)c2)C1	HXB2	strand transfer / radiometric	1.7 µM
O=C(O)C(=O)CC(=O)c1c[nH]c2ccccc12		strand transfer	15.1 µM
CC[C@@]1(O)C(=O)OCc2c1cc1n(c2=O)Cc2cc3ccccc3nc2-1		strand transfer	>100 µM
COc1ccc(Cn2nnnc2C(=O)CC(=O)c2c[nH]c3ccccc23)cc1		3′ processing	60 µM
CC(C)c1c(C(=O)Nc2ccccc2)c(-c2ccccc2)c(-c2ccc(F)cc2)n1CC[C@@H](O)C[C@@H](O)CC(=O)O		AlphaScreen	8.9 µM
COc1cc(/C=C/C(=O)CC(=O)/C=C/c2ccc(O)c(OC)c2)ccc1O		disintegration	~220 µM
COc1ccccc1/C(O)=C/C(=O)C(=O)O		3′ processing	>100 µM
NC(N)=NS(=O)(=O)c1ccc(Nc2c3ccccc3nc3c(C(=O)NC(CO)(CO)CO)cccc23)cc1	RF	3′ processing	>180 µM
COc1cc(C(=O)Oc2c(-c3ccc(Cl)c(Cl)c3)oc3ccccc3c2=O)cc(OC)c1O		3′ processing	>100 µM
COc1ccc(Cn2nnnc2C(=O)CC(=O)c2cc(OCc3ccccc3)cc(OCc3ccccc3)c2)cc1		strand transfer	>365 µM
O=C(O)C(=O)/C=C(\O)c1ccccc1		3′ processing	>100 µM
CCOC(=O)CC(=O)c1cccn1Cc1ccc(F)cc1		binding	>100 µM
COc1ccc2[nH]c3ccc4cc[n+](CCN5CCC(C6CCN(CC[n+]7ccc8ccc9[nH]c%10ccc(OC)cc%10c9c8c7)CC6)CC5)cc4c3c2c1		3′ processing / substrate cleavage	0.9 µM
Oc1ccc2c(c1)OC[C@]1(O)Cc3cc(O)c(O)cc3[C@H]21	HXB2	strand transfer / radiometric	35 µM
O=C(CC(=O)c1c[nH]c2ccccc12)c1nn[nH]n1		3′ processing	>392 µM
COc1cc(C(=O)Oc2c(-c3ccc(Cl)c(Cl)c3)oc3ccccc3c2=O)ccc1O		3′ processing	>100 µM
COC(=O)C(=O)OC1(C(=O)O)C[C@@H](OC(=O)/C=C/c2ccc(O)c(O)c2)C(O)[C@H](OC(=O)/C=C/c2ccc(O)c(O)c2)C1		3′ processing	0.27 µg/mL
Cc1cc(C)cc(Cn2cc(C(=O)CC(O)C(=O)O)c3c(O)cccc32)c1		AlphaScreen	3.5 µM
O=C(/C=C/c1ccc(O)c(O)c1)O[C@@H]1CC(O)(C(=O)O)C[C@@H](OC(=O)/C=C/c2ccc(O)c(O)c2)C1O	LAI	strand transfer	0.34 ± 0.22 µg/mL
COC(=O)C(=O)/C=C(\O)c1ccc2cc(O)c(O)cc2c1		strand transfer	3.7 µM
CC(=O)c1cccn1Cc1ccc(F)cc1		strand transfer	>100 µM
Cc1cc(O)c2c(c1)C(=O)C1(C)C(=C2O)C(=O)[C@H]2[C@H](O)[C@H]3[C@@H](O)[C@@H]1C(=O)C1=C(O)c4c(O)cc(C)cc4C(=O)C132		absorbance	19 µM
CC(C)c1ccc(C(c2ccc(OCC(=O)O)cc2)c2ccc(C(C)C)cc(=O)c2O)c(O)c(=O)c1	RF	3′ processing	1.4 µM
CC(C)OC(=O)C(=O)CC(=O)c1cccn1Cc1ccc(F)cc1		strand transfer	>100 µM
COC(=O)C(=O)OC1(C(=O)O)C[C@@H](OC(=O)/C=C/c2ccc(O)c(O)c2)C(O)[C@H](OC(=O)/C=C/c2ccc(O)c(O)c2)C1	LAI	strand transfer	0.26 ± 0.08 µg/mL
CN(C)C1C(=O)C(C(=O)NCNC(CO)(CO)CO)=C(O)C2(O)C(=O)C3=C(O)c4c(O)cccc4C(C)(O)C3CC12	RF	strand transfer	1.6 µM
CCOc1nc2cccc(C(=O)O)c2n1Cc1ccc(-c2ccccc2-c2nn[nH]n2)cc1		AlphaScreen	11.36 µM
CC(C)=C/C=C\[C@H](C)[C@H]1CC[C@]2(C)C[C@H]3[C@@H]4C(=C[C@@H]12)COC4(O)C[C@@]3(C)O		absorbance	30 µM
O=C(/C=C/c1ccc(O)c(O)c1)O[C@@H]1CC(O)(C(=O)O)C[C@@H](OC(=O)/C=C/c2ccc(O)c(O)c2)C1O		strand transfer	0.34 µg/mL
COc1cc(/C=C/C(=O)Oc2c(-c3ccc(Cl)c(Cl)c3)oc3ccccc3c2=O)ccc1O		3′ processing	>100 µM
O=C1Cc2ccccc2C(=O)N1O		strand transfer	7.91 µM
O=C(Oc1c(-c2ccc(Cl)cc2)oc2ccccc2c1=O)c1cc(O)c(O)c(O)c1		3′ processing	8.3 µM
Cn1cc(NC(=O)c2cc(NC(=O)c3cc(NC=O)cn3C)cn2C)cc1C(=O)NCCC(=N)N		strand transfer	>100 µM
CC(C)=C/C=C\[C@H](C)[C@H]1CC[C@]2(C)C[C@H]3[C@H](C(=O)C[C@@]3(C)O)C(C=O)=C[C@@H]12		strand transfer	>120 µM
O=C(/C=C/c1ccc(O)c(O)c1)OCCc1ccccc1		strand transfer	18.9 µM
CN(C)[C@H]1C(=O)C(C(=O)NCN2CCN(C(=N)N=C(N)N)CC2)=C(O)[C@]2(O)C(=O)C3=C(O)c4c(O)cccc4[C@](C)(O)[C@@H]3C[C@H]12	RF	3′ processing	0.9 µM
COc1cccc2c1C(=N)c1c(O)c3c(c(O)c1C2=O)C[C@@](O)(C(C)=O)C[C@@H]3O[C@H]1C[C@H](N)[C@H](O)[C@H](C)O1		strand transfer	16.2 µM
COc1ccc([C@H]2c3cc(O)c(O)cc3C[C@@H]3C(=O)OC[C@H]23)cc1OC	HXB2	strand transfer / radiometric	7 µM
NCCCNCCCCNCCCN		strand transfer	>100 µM
COc1cc(C(=O)Oc2c(-c3ccc(Cl)cc3)oc3ccccc3c2=O)ccc1O		3′ processing	>100 µM
COC(=O)C(=O)/C=C(\O)c1ccc(O)c(O)c1		3′ processing	>100 µM

A second listing of 7 rows from above:

compound,strain or isolate,method,value
CC(C)c1c(C(=O)Nc2ccccc2)c(-c2ccccc2)c(-c2ccc(F)cc2)n1CC[C@@H](O)C[C@@H](O)CC(=O)O,,AlphaScreen,8.9 µM
COc1cc(C(=O)Oc2c(-c3ccc(Cl)cc3)oc3ccccc3c2=O)ccc1O,,3′ processing,>100 µM
COc1cc(/C=C/C(=O)Oc2c(-c3ccc(Cl)c(Cl)c3)oc3ccccc3c2=O)ccc1O,,3′ processing,>100 µM
CCCCC[C@H]1C(C)=C[C@H]2C[C@@H](C)CC[C@@H]2[C@@]1(C)/C(O)=C1/C(=O)[C@@H](CO)N(C)C1=O,,strand transfer,7–15 µM
O=C(/C=C/c1ccc(O)c(O)c1)O[C@@H]1CC(O)(C(=O)O)C[C@@H](OC(=O)/C=C/c2ccc(O)c(O)c2)C1O,,strand transfer,0.34 µg/mL
CC[C@@]1(O)C(=O)OCc2c1cc1n(c2=O)Cc2cc3ccccc3nc2-1,,strand transfer,>100 µM
COc1ccc(Cn2nnnc2C(=O)CC(=O)c2c[nH]c3ccccc23)cc1,,3′ processing,60 µM